## Screening data, single-dose tests

Results are given as percent effect. How 0% and 100% were set is not recorded. Most values in the screen are low, and negative values occur. The entries come from a sample that favours strong results. Two or more numbers in one place are separate tests of the same structure; such repeats can differ widely. A dash means the value is not listed here; it may have been measured.

A: 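Whole-cell growth test on Mycobacterium tuberculosis, read after 4 days in a medium based on cholesterol and the lipid DPPC; the read-out is not stated. Tested at 50 µM. The record gives no direction; compounds that gave an IC50 in retests scored well above the rest, so higher reads as more growth inhibition. About 69,000 compounds were tested under these conditions; 0.54% (about 370) showed 50% or more at least once.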
B: 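Growth of Mycobacterium tuberculosis over 3 days (7H9 medium with glucose and tyloxapol); the read-out is not stated. Concentration: 50 µM. Direction is inferred from retests: higher values go with more growth inhibition. Of about 69,000 compounds tested this way, about 760 (1.1%) reached 50% or more in at least one test.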

| Compound | A | B |
|---|---|---|
| `CCc1nc(CN(C)CC(N)=O)cs1` | 2.248% | -28.7% |
| `CC(=O)N1CCCC1c1cccc(Cc2ccccc2F)n1` (stereo not shown) | - | 62.97% |
| `c1ccc2c(CC3CN(Cc4nccs4)CCO3)cccc2c1` (stereo not shown) | 9.431% & 16.13% | - |
| `COc1ccc(Oc2ccc(C(F)(F)F)cn2)cc1CN1CCCC1` | 21.72% | 34.57% |
| `c1ccc2c(N3CCOC(Cn4cccn4)C3)ncnc2c1` (stereo not shown) | - | -1.439% |
| `CCS(=O)(=O)N1CCC2(CCCN(Cc3cc(OC)ccc3F)C2)C1` (stereo not shown) | - | -4.535% & -25.18% |
| `CNCc1nc(-c2ccc3c(c2)OCO3)c[nH]1.Cl.Cl` | - | -32.47% & -2.545% |
| `[H][C@]12OCCN(C(=O)COc3ccccc3)[C@@]1([H])CC[C@@H]2OCC` | - | 73.2% |
| `Cc1cc(C)cc(C(=O)NCCCNc2ncccn2)c1` | - | -2.899% |
| `CN(C)S(=O)(=O)c1ccc(CNC(=O)C2CC(=O)N(C(C)(C)C)C2)cc1` (stereo not shown) | 14.9% & -0.162% | - |
| `CC(C)Oc1ccc(CNC(=O)C2CCC(=O)N2)cn1` (stereo not shown) | -31.22% | -59.12% |
| `NC1(c2nc(-c3ccccc3)cc(=O)[nH]2)CCCC1` | -9.553% | -31.47% & 0.8318% |
| `COc1ccc(C[C@H]2CNCC[C@@H]2OCC2CC2)cc1` | 5.063% | -7.603% |
| `O=C1NCC2(CCCN(C(=O)c3c[nH]nc3-c3cccs3)C2)O1` (stereo not shown) | - | 97.71% & -10.44% |
| `CSc1nccc(N2CCC3(CCCN(CC4CC4)C3)C2)n1` (stereo not shown) | -3.435% | -35.64% |
| `O=C1c2cccnc2OC(CN2CCOCC2)CN1C1CCC1` (stereo not shown) | - | 4.551% |
| `Cc1ccc(N2CCN(C)c3ncccc3C2)nn1.O=C(O)C(F)(F)F` | - | 32.84% & 65.07% |
| `COC(=O)CN(C)Cc1cc(Br)cs1` | 86.83% | -2.206% |
| `CCOCCCNC(=O)c1cn(CC)nc1C` | - | 8.262% |
| `Cc1cnc2c(S(=O)(=O)NCC3CCS(=O)(=O)C3)cccc2c1` (stereo not shown) | - | 4.318% |
| `CCc1nc(NC2CCCN(C(=O)C3CC3)C2)c2cnn(C)c2n1` (stereo not shown) | -6.872% | - |
| `C=C/C=c1\c(=C/C)oc2c(NCc3ccccc3)ncnc12` | 38.56% | 32.53% |
| `CCSc1ncc(CN2CCN(c3nc(C)cnc3C)CC2)cn1` | 51.65% | 28.11% |
| `O=C(O)CC(O)(CC(=O)O)C(=O)O.[H][C@@]12CC[C@@](O)(c3ccc(C)cn3)[C@]1([H])CN(Cc1cccc(F)c1F)C2` | - | 24.58% |
| `Cc1cc(Cc2cccc(C(F)(F)F)c2)cc(C2CCCNC2)n1` (stereo not shown) | - | 69.04% |
| `Cc1cccc(CSc2nnc(C)n2CC(N)=O)c1` | - | 6.71% |
| `CCCn1nnc(NCc2ccccc2OCc2ccc(Cl)cc2)n1` | 46.32% | 51.82% |
| `CN1CCCC1c1cccc(Cc2ccc(F)cc2)n1` (stereo not shown) | - | 24.23% |
| `CC(C)NC(=O)NC(C)c1nc(-c2ccccc2)cs1` (stereo not shown) | -4.727% | - |
| `Fc1cccc(OC2CCN(CCn3cc4ccccc4n3)CC2)c1` | 48.85% | 60.47% |
| `CN1CCC(c2cccc(Cc3ccc(F)cc3)n2)CC1` | - | -6.788% |
| `Cc1cc(N(C)Cc2c(C)noc2C)n2nc(C)c(C)c2n1` | 3.229% | 12.71% & -1.511% |
| `COc1cccc(COCC(=O)N2CCCC(n3cncn3)C2)c1` (stereo not shown) | - | -7.09% |
| `COCC(=O)NCCc1ccc(I)s1` | - | 53.21% |
| `O=C(O)c1cc(-c2ccoc2)cc(S(=O)(=O)NC2CC2)c1` | - | 66.57% |
| `CC1CN(C)c2ccccc2CN1C(=O)c1cnsn1` (stereo not shown) | - | -12.8% |
| `Cc1csc(CNC(=O)N2CCN(Cc3ccco3)CC2)n1` | - | 0.3863% |
| `O=C(c1cnc(O)c(Cl)c1)N1CCCC(c2nccs2)C1` (stereo not shown) | -13.89% & -7.283% | - |
| `N#Cc1nccnc1N1CCC(COCc2ccccc2)C1` (stereo not shown) | 37.28% | - |
| `COc1ccc(C(C)=O)cc1CN1CCn2cccc2C1C` (stereo not shown) | - | 19.53% |
| `O=C(c1ccc(Cn2cnnn2)cc1)N1CCC(c2ccncc2)CC1` | 90.92% | - |
| `COCCNS(=O)(=O)c1cccc2c1CN(C(=O)c1ccccc1)CC2` | - | -16.87% & -14.77% |

Repeated from the top, 4 entries:

Compound	A	B
CCc1nc(CN(C)CC(N)=O)cs1	2.248%	-28.7%
CC(=O)N1CCCC1c1cccc(Cc2ccccc2F)n1 (stereo not shown)	-	62.97%
c1ccc2c(CC3CN(Cc4nccs4)CCO3)cccc2c1 (stereo not shown)	9.431% & 16.13%	-
COc1ccc(Oc2ccc(C(F)(F)F)cn2)cc1CN1CCCC1	21.72%	34.57%

Source: ChEMBL document CHEMBL3988442, “University of Dundee, Small-Polar-MMV Screening Library” (2021).